Reference: US12459987B2, “Monoclonal antibodies for prevention and treatment of herpes simplex viral infections” (priority 2019, dated 2025)

How the values were obtained:
[1] = test system: HSV-2 G infected cell lysates; experiment: ELISA binding of recombinant antibodies to HSV-2 G infected cell lysates; set-up: species or system HSV-2 G strain
[2] = test system: HSV-2; experiment: Passive transfer in vivo protection assay, lethal HSV-2 challenge; set-up: species or system mice
[3] = biological target: human herpesvirus glycoprotein B (gB) (Human herpesvirus 2); experiment: Immunoprecipitation-Mass Spectrometry (IP-MS) target identification; format: binding
[4] = biological target: glycoprotein B of HSV-1 (gB-1) (Human herpesvirus 1); experiment: Luminex multiplex assay, binding to gB-1
[5] = biological target: gB-1 (Human herpesvirus 1); experiment: Luminex competition: inhibition of binding of BMPC-23 human IgG to gB-1; set-up: species or system HSV-1

| Molecule | Relative avidity of binding to HSV-2 G lysates (rank order) ([1]; ELISA, order 32H6, 35H7, 22D10, 33B8) | Binding of recombinant antibodies to HSV-2 G lysates ([1]; ELISA, recombinant antibodies expressed in Expi293F cells) | Binding to HSV-lysate ([1]; Table 3 summary) | Mice protected from lethal challenge ([2]; IgG2c version, overall results from 2 independent experiments, passive transfer) | in vivo protection ([2]; Table 3 summary) | Protection against lethal HSV-2 challenge ([2]; as IgG2c, passive transfer, overall survival, epithelial and neurological assays) | Binding target identified by IP-MS [3] | Binding to gB-1 ([4]; Luminex multiplex assay, serially diluted antibodies) | Target antigens ([4]; Table 3 summary) | Competition with BMPC-23 ([5]; Table 3 summary) | Inhibition of binding of BMPC-23 human IgG antibodies to gB-1 ([5]; competitor mouse IgG at 222 ng/ml, BMPC-23 human IgG 2 ng/ml, relative to control IgG H33Lγ1) [%] |
| --- | --- | --- | --- | --- | --- | --- | --- | --- | --- | --- | --- |
| BMPC-23: mouse monoclonal antibody from bone marrow plasmacyte of ΔgD-2 vaccinated mice; IgH SEQ ID NO: 20, IgL SEQ ID NO: 22 (antibody, V domains shown, BMPC-23_IgH heavy chain; BMPC-23_IgL light chain) VH: QVQLQQSGPELVKPGASVKLSCKASGYSFTTYDINWVKERPGQGLEWIGWIYPREGSTNYNEKFRGKATLTADTSSSTAYMELHSLTSEDSAVYFCATYGSSRYYTMDYWGQGTSVTVSSA VL: DIVLTQSPTSLAVSLGQRATISCRASESVDNFGISFMNWFQQKPGQPPKLLIYAASNLGSGVPARFSGSGSGTDFSLNIHPMEDDDTAMYFCQQSKEVPLTFGAGTKLELKR | comparable to that of 19G7 | reacted with HSV-2 G lysate | Yes | 8/10 | Yes | significant protection; also recorded: provides protection | human herpesvirus glycoprotein B (gB) | substantial binding | gB | Strong | – |
| BMPC-23 mouse IgG: BMPC-23 as mouse IgG, competitor against BMPC-23 human IgG (antibody, V domains shown) VH: QVQLQQSGPELVKPGASVKLSCKASGYSFTTYDINWVKERPGQGLEWIGWIYPREGSTNYNEKFRGKATLTADTSSSTAYMELHSLTSEDSAVYFCATYGSSRYYTMDYWGQGTSVTVSSA VL: DIVLTQSPTSLAVSLGQRATISCRASESVDNFGISFMNWFQQKPGQPPKLLIYAASNLGSGVPARFSGSGSGTDFSLNIHPMEDDDTAMYFCQQSKEVPLTFGAGTKLELKR | – | – | – | – | – | – | – | – | – | – | > 99 |

“Also recorded” adds a separate entry of the source.
